PubChem BioAssay AID624099 – ICCB-Longwood | 2012

- Test: 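Host factors E2 relies on to silence an HPV18 LCR reporter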 (primary screen)
- Cell system: human C33A cervical carcinoma cells (HPV-negative) stably expressing BPV1 E2 and an HPV18 LCR luciferase reporter
- Reagents: siRNA pool against human genes, 40 nM
- Timing: 72 h
- Read-out: 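HPV18 LCR reporter light per well, converted to plate-wise z-scores that exclude control wells, and averaged over triplicate plates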
- Reading the numbers: mean z-score and z-score: higher = stronger reporter signal, weaker E2 silencing
- Rule for the call: 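Hit if mean z-score reaches 2 and two or more of three replicate z-scores also reach 2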
This is a random part of about 21,000 deposited reagents. In the full data, 497 (2.4%) are marked active. 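Higher z means weaker E2 silencing; only reporter increases were scored, and knock-downs that hurt cell survival may mask genuine repressor factors.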 Entries without a mark were called inactive.

no.	target gene	mean z-score	z-score, replicate A	z-score, replicate B	z-score, replicate C
1	AMBN (ameloblastin)	-0.65	-0.88	-0.67	-0.4
2	AVL9 (AVL9 cell migration associated)	-0.25	-0.24	-0.32	-0.19
3	ATP1B4 (ATPase Na+/K+ transporting family member beta 4)	-0.2	-0.08	-0.37	-0.14
4	ARL4D (ARF like GTPase 4D)	0.16	0.16	-0.01	0.32
5	USP3 (ubiquitin specific peptidase 3)	0	-0.23	0.22	0.02
6	HPX (hemopexin)	-0.69	-0.48	-0.95	-0.65
7	PI4K2A (phosphatidylinositol 4-kinase type 2 alpha)	-0.56	-0.81	-0.69	-0.18
8	MAK (male germ cell associated kinase)	0.7	0.85	0.36	0.89
9	OCLM (retired record)	-0.06	-0.27	0.22	-0.15
10	SELENOM (selenoprotein M)	0.28	0.38	0.34	0.11
11	ADGRA1 (adhesion G protein-coupled receptor A1)	0.25	0.45	-0.02	0.31
12	RBM48 (RNA binding motif protein 48)	-0.52	-0.61	-0.21	-0.74
13	SLC17A1	0.31	0.76	0.1	0.06
14	ISLR (immunoglobulin superfamily containing leucine rich repeat)	-0.41	-0.54	-0.27	-0.41
15	PRLHR (prolactin releasing hormone receptor)	0.51	0.64	0.35	0.54
16	PFN2 (profilin 2)	0.52	0.53	0.4	0.63
17	SNRNP27 (small nuclear ribonucleoprotein U4/U6.U5 subunit 27)	0.2	0.23	0.37	-0.01
18	TAC1 (tachykinin precursor 1)	-0.18	-0.1	-0.25	-0.2
19	CRISP3 (cysteine rich secretory protein 3)	0.18	0.02	0.31	0.2
20	B3GALT4 (beta-1,3-galactosyltransferase 4)	-1.16	-1.03	-1.08	-1.36
21	PSMA1 (proteasome 20S subunit alpha 1)	-1.26	-1.05	-1.45	-1.29
22	LOC401078 (retired record)	0.24	0.56	0.08	0.09
23	PDHA2 (pyruvate dehydrogenase E1 subunit alpha 2)	0.35	0.07	0.48	0.5
24	KIF21B (kinesin family member 21B)	0.25	0.36	0.04	0.35
25	LOC389352 (retired record)	0.6	0.55	0.72	0.55
26	GPRC5B (G protein-coupled receptor class C group 5 member B)	1.6	2.3	1.96	0.54
27	FAM81B (family with sequence similarity 81 member B)	-0.82	-0.33	-0.79	-1.34
28	RAP1GAP (RAP1 GTPase activating protein)	0.71	0.73	0.62	0.78
29	MBD2 (methyl-CpG binding domain protein 2)	0.24	0.4	0.41	-0.09
30	TIMP2 (TIMP metallopeptidase inhibitor 2)	0.14	0.3	-0.05	0.17
31	TMPRSS11A (transmembrane serine protease 11A)	0.37	0.36	0.35	0.4
32	ASPSCR1 (ASPSCR1 tether for SLC2A4, UBX domain containing)	-0.73	-0.9	-0.63	-0.67
33	FCGR2A (Fc gamma receptor IIa)	0.12	0.16	0.04	0.15
34	SERPINA1 (serpin family A member 1)	1.73	2.48	1.2	1.51
35	FNBP1L (formin binding protein 1 like)	1.18	1.44	0.84	1.26
36	LINC01559 (long independently transcribed non-coding RNA 1559)	0.08	-0.12	-0.08	0.44
37	POLM (DNA polymerase mu)	0.2	0.28	0.15	0.18
38	TRIP10 (thyroid hormone receptor interactor 10)	0.44	0.82	0.17	0.32
39	PRSS35 (serine protease 35)	0.35	0.05	0.26	0.73
40	ZBTB43 (zinc finger and BTB domain containing 43)	0.49	0.89	0.07	0.51
41	PPP2R3B (protein phosphatase 2 regulatory subunit B''beta)	-0.1	0.15	-0.29	-0.17
42	SYF2 (SYF2 pre-mRNA splicing factor)	-0.72	-0.53	-1.11	-0.52
43	NCOA7 (nuclear receptor coactivator 7)	-0.21	0.02	-0.24	-0.41
44	PER1 (period circadian regulator 1)	-0.95	-0.96	-1.23	-0.66
45	G6PC2 (glucose-6-phosphatase catalytic subunit 2)	-0.08	0.23	-0.28	-0.19
46	CCT6A (chaperonin containing TCP1 subunit 6A)	0.57	0.71	0.4	0.6
47	RHD (Rh blood group D antigen)	0.16	0.27	0.28	-0.09
48	UBE2V1 (ubiquitin conjugating enzyme E2 V1)	0.07	0.01	0.11	0.08
49	WDR37 (WD repeat domain 37)	-0.55	-0.7	-0.32	-0.64
50	LIPM (lipase family member M)	-0.31	0	-0.56	-0.36
51	SECISBP2L (SECIS binding protein 2 like)	-1.11	-1.5	-0.85	-0.98
52	GGNBP2 (gametogenetin binding protein 2)	-0.32	-0.12	-0.22	-0.64
53	ZNF691 (zinc finger protein 691)	1.03	0.5	1.25	1.34
54	HSPG2 (heparan sulfate proteoglycan 2)	0.91	0.52	1.24	0.99
55	UBE2F (ubiquitin conjugating enzyme E2 F (putative))	0.71	0.69	0.24	1.2
56	RPP38-DT (RPP38 divergent transcript)	-1.37	-1.19	-1.54	-1.36
57	IP6K1 (inositol hexakisphosphate kinase 1)	-0.67	-0.83	-0.67	-0.52
58	ICAM2 (intercellular adhesion molecule 2)	0.34	0.4	0.28	0.33
59	SOWAHD (sosondowah ankyrin repeat domain family member D)	0.28	0.17	0.26	0.41
60	ATG12 (autophagy related 12)	3.15 (active)	3.09	3.12	3.24
61	CCDC88B (coiled-coil and HOOK domain protein 88B)	-1.24	-1.28	-1.02	-1.44
62	ARMC10 (armadillo repeat containing 10)	0.7	0.78	0.67	0.65
63	ACTG1 (actin gamma 1)	-0.39	-0.36	-0.47	-0.33
64	ALDH8A1 (aldehyde dehydrogenase 8 family member A1)	0.62	0.96	0.36	0.53
65	CIBAR1 (CBY1 interacting BAR domain containing 1)	-0.03	-0.14	-0.14	0.18
66	LAYN (layilin)	0.16	0.39	0.62	-0.53
67	ACE2 (angiotensin converting enzyme 2)	0.94	1.39	0.85	0.58
68	SETX (senataxin)	-1.81	-1.78	-1.72	-1.94
69	NDUFA3 (NADH:ubiquinone oxidoreductase subunit A3)	-0.5	-0.53	-0.38	-0.58
70	METTL25 (methyltransferase like 25)	0.36	0.2	0.43	0.46
71	BAD (BCL2 associated agonist of cell death)	-0.25	-0.65	-0.15	0.05
72	KISS1 (KiSS-1 metastasis suppressor)	-1.11	-0.88	-1.09	-1.37
73	SAMD12 (sterile alpha motif domain containing 12)	-0.63	-0.19	-0.98	-0.72

As entered above.
CCT6A (chaperonin containing TCP1 subunit 6A), z-score, replicate B → 0.4
TRIP10 (thyroid hormone receptor interactor 10), z-score, replicate B → 0.17
ZBTB43 (zinc finger and BTB domain containing 43), mean z-score → 0.49
LINC01559 (long independently transcribed non-coding RNA 1559), z-score, replicate B: -0.08
FAM81B (family with sequence similarity 81 member B), z-score, replicate A = -0.33
For “mean z-score”, SYF2 (SYF2 pre-mRNA splicing factor) shows -0.72
